Measured values from several laboratories, pooled; numbers as filed in NIAID ChemDB.

All rows: growth or infection tests; organism: Vaccinia virus; measure: EC50

ECn: concentration that inhibits the pathogen or its effect by n%.

O=c1[nH]c(=O)n(C2CC(O[N+](=O)[O-])C(CO)O2)cc1F ; cells: E6SM ; result: >400 µg/mL
O=c1[nH]c(=O)n([C@H]2C[C@H](O)[C@@H](CO)O2)cc1-c1ccco1 ; cells: HEL ; result: 7 µg/mL
N[C@@H]1[C@H](O)[C@@H](CO)O[C@H]1n1ccc(=O)[nH]c1=O ; cells: PRK ; result: 150 µg/mL
CCCCCC#Cc1c[nH]c(=O)[nH]c1=O ; cells: HEL ; result: >200 µM
Nc1nc2c(ncn2[C@@H]2O[C@H](CO)[C@@H](O)[C@H]2N)c(=O)[nH]1 ; cells: PRK ; result: >200 µg/mL
CC=NC(=N)c1nc(-c2cccc(C)c2)n(Cc2ccccc2)n1 ; cells: E6SM ; result: >4 µg/mL
Nc1nccc2c1nnn2[C@H]1CC[C@@H](CO)O1 ; cells: VERO ; result: >387 µM
CCCCCCCCCCC#Cc1cn(S(=O)(=O)c2ccc(C)cc2)c(=O)[nH]c1=O ; cells: HEL ; result: >200 µM
Cc1cccn2c(C3SCCS3)cnc12 ; cells: E6SM ; result: >1000 µM
OC[C@H]1O[C@@H](n2nnc3c(Cl)nccc32)[C@H](O)[C@@H]1O ; cells: VERO ; result: >370 µM
CC1(C)[C@@H](CCO)C[C@H]1n1cnc2c(N)ncnc21 ; cells: E6SM ; result: 70 µg/mL
OC[C@H]1O[C@@H](c2cc(C(O)CBr)c(F)cc2F)C[C@@H]1O ; cells: E6SM ; result: >3.2 µg/mL
O=c1[nH]c(=O)n([C@H]2C[C@H](O)[C@@H](CO)O2)cc1/C=C/Br ; cells: E6SM ; result: 0.384 µM
C=C(N=CC)c1nc(-c2ccc(OC)cc2)n([C@@H]2O[C@H](CO)[C@@H](O)[C@H]2O)n1 ; cells: E6SM ; result: 150 µg/mL
O=c1[nH]cnc2c1ncn2[C@@H]1C=C(CO)[C@@H](O)[C@H]1O ; strain or isolate: VAC ; cells: VERO ; result: >100 µg/mL
O=c1[nH]c(=O)n([C@H]2C[C@H](O)[C@@H](CO)O2)cc1Br ; cells: Primary rabbit kidney cells ; result: 0.32 µM
O=c1[nH]c(=O)n([C@H]2C[C@H](O)[C@@H](CO)O2)cc1I ; strain or isolate: IHD ; cells: HeLa ; result: 3.39 µg/mL
Nc1ncnc2c1ncn2C[C@@H](CO)OCP(=O)(O)O ; cells: VERO ; result: 7 µM
Cc1cc(C)nc(NS(=O)(=O)c2ccc(N=C3C(=O)Nc4ccccc43)cc2)n1 ; cells: HFF ; result: 55 µM
CCCCCCC#Cc1c[nH]c(=O)[nH]c1=O ; cells: HEL ; result: >200 µM
CC1(C)[C@@H](CCO)C[C@H]1n1nnc2c(=O)[nH]cnc21 ; cells: E6SM ; result: 70 µg/mL
CC(C)c1cn([C@@H]2OC3COP(=O)(O)OC3[C@H]2O)c(=O)nc1N ; result: >400 µg/mL
Cc1cc([C@@H]2C[C@H](O)[C@@H](CO)O2)c(Cl)cc1F ; cells: E6SM ; result: >400 µg/mL
Nc1ncnc2c1nnn2[C@@H]1O[C@H](CO)[C@@H](O)[C@H]1O ; cells: VERO ; result: 1.5 µM
Cc1cc([C@H]2C[C@H](O)[C@@H](CO)O2)c(F)cc1Cl ; cells: E6SM ; result: >400 µg/mL
CCCCCc1cn([C@@H]2O[C@H](COP(=O)(O)O)[C@@H](O)[C@H]2O)c(=O)nc1N ; result: >400 µg/mL
C=C(N=CC)c1nc(-c2ccccc2)n([C@@H]2O[C@H](CO)[C@@H](O)[C@H]2O)n1 ; cells: E6SM ; result: >200 µg/mL
Nc1nc(=O)n([C@@H]2C=C(CO)[C@@H](O)[C@H]2O)cc1F ; strain or isolate: VAC ; cells: VERO ; result: 1.46 µg/mL
O=P(O)(O)OC[C@H]1OC(O)[C@@H](O)[C@@H](O)[C@@H]1O ; cells: E6SM ; result: >400 µg/mL
CC=NC(=N)c1nc(-c2ccc(C)cc2)n(COCCO)n1 ; cells: E6SM ; result: >10 µg/mL
CCCCCCCCc1cc2cnc(=O)[nH]c2o1 ; cells: HEL ; result: >200 µM
Cc1cc([C@@H]2C[C@H](O)[C@@H](CO)O2)c(F)cc1Cl ; cells: E6SM ; result: >400 µg/mL
Cc1cc(C)nc(NS(=O)(=O)c2ccc(N=C3C(=O)Nc4ccc(F)cc43)cc2)n1 ; cells: HFF ; result: >60 µM
O=c1[nH]c(=O)n([C@H]2C[C@H](O)[C@@H](CO)O2)cc1-c1cccs1 ; cells: HEL ; result: >400 µg/mL
Cc1ccn2c(C(SCCc3ccccc3)SCCc3ccccc3)cnc2c1 ; cells: E6SM ; result: >1000 µM
Nc1ncnc2c1ncn2[C@@H]1O[C@H](CO)[C@@H](O)[C@H]1N ; cells: PRK ; result: 4 µg/mL
CCCCCCCC#Cc1c[nH]c(=O)[nH]c1=O ; cells: HEL ; result: >40 µM
Nc1ncnc2c1ncn2[C@@H]1O[C@H](CO)[C@](O)(C(F)(F)F)[C@H]1O ; cells: E6SM ; result: 100 µg/mL
Nc1nc(F)nc2c1ncn2[C@@H]1C=C(CO)[C@@H](O)[C@H]1O ; cells: E6SM ; result: 0.1 µg/mL
N=C(N)CCNC(=O)c1c[nH]c(NC(=O)c2c[nH]c(NC(=O)c3ccc(CC(=O)Nc4c[nH]c(C(=O)Nc5c[nH]c(C(=O)NCCC(=N)N)c5)c4)cc3)c2)c1 ; cells: PRK ; result: 10 µg/mL
O=c1[nH]c(=O)n(C2CC(O[N+](=O)[O-])C(CO)O2)cc1I ; cells: E6SM ; result: >400 µg/mL
CCCCCCCCCC(=O)O[C@@H]1[C@@H]2Oc3nc(=N)ccn3[C@@H]2O[C@@H]1CO ; strain or isolate: IHD ; cells: HeLa ; result: 0.062 µg/mL
COC(=O)[C@H](C)NP(=O)(OC[C@H]1O[C@@H](n2cc(/C=C/Br)c(=O)[nH]c2=O)C[C@@H]1O)Oc1ccccc1 ; cells: E6SM ; result: 9.6 µM
CC1(C)[C@@H](CCO)C[C@H]1n1cnc2c(=O)[nH]c(N)nc21 ; cells: E6SM ; result: >400 µg/mL
CCn1cc(C(=O)O)c(=O)c2ccc(C)nc21 ; strain or isolate: Lister ; cells: HeLa ; result: 83 µg/mL
Cc1ccn2c(C3OCCS3)cnc2c1 ; cells: E6SM ; result: >1000 µM
Cc1cc(C)nc(NS(=O)(=O)c2ccc(N=C3C(=O)N(C(=O)c4ccccc4)c4ccccc43)cc2)n1 ; cells: HFF ; result: 230 µM
O=c1[nH]c(=O)n([C@H]2C[C@H](O)[C@@H](CO)O2)cc1F ; cells: Primary rabbit kidney cells ; result: 0.4 µM
C=C(N=CC)c1nc(-c2ccc(OC)cc2)n(C2O[C@H](CO)[C@@H](O)[C@H](O)[C@H]2O)n1 ; cells: E6SM ; result: >200 µg/mL
Nc1ncnc2c1ncn2[C@@H]1O[C@H](COP(=O)(O)O[C@@H]2[C@H](O)[C@@H](COP(=O)(O)OP(=O)(O)OC[C@@H]3OC(O)[C@H](O)[C@H](O)[C@H]3O)O[C@H]2n2cnc3c(N)ncnc32)[C@@H](O)[C@H]1O ; cells: PRK ; result: >200 µg/mL
Cc1ccn2c(C3SCCS3)cnc2c1 ; cells: E6SM ; result: >1000 µM
Nc1nc(=O)n([C@H]2C[C@H](O)[C@@H](CO)O2)cc1-c1cccs1 ; cells: HEL ; result: 20 µg/mL
Nc1ncnc2c1ncn2[C@@H]1O[C@H](COP(=O)(O)O)[C@@H](O)[C@H]1O ; cells: PRK ; result: 300 µg/mL
CCCCCCC#Cc1cn(S(=O)(=O)c2ccc(C)cc2)c(=O)[nH]c1=O ; cells: HEL ; result: >200 µM
CC(=O)N[C@H]1C[C@@H](n2cnc3c(N)ncnc32)[C@H](O)[C@@H]1O ; cells: HFF ; result: >100 µg/mL
O=c1[nH]c(=O)n([C@H]2C[C@H](O)[C@@H](CO)O2)cc1I ; cells: E6SM ; result: 0.2 µg/mL
CCc1nc2c(N)ncnc2n1[C@@H]1O[C@H](CO)[C@@H](O)[C@H]1O ; cells: E6SM ; result: 70 µg/mL
Nc1ccn([C@@H]2O[C@H](CO)[C@@H](O)[C@H]2N)c(=O)n1 ; cells: PRK ; result: ≥200 µg/mL
N=C(N)CCNC(=O)c1c[nH]c(NC(=O)c2c[nH]c(NC(=O)CC(=O)Nc3c[nH]c(C(=O)Nc4c[nH]c(C(=O)NCCC(=N)N)c4)c3)c2)c1 ; cells: PRK ; result: 0.2 µg/mL
CCCc1cn([C@@H]2O[C@H](COP(=O)(O)O)[C@@H](O)[C@H]2O)c(=O)nc1N ; result: >400 µg/mL
C[C@@]1(O)[C@@H](CO)O[C@@H](n2cnc3c(N)ncnc32)[C@@H]1O ; cells: E6SM ; result: 4 µg/mL
Nc1ncnc2c1ncn2[C@H]1C[C@H](O)[C@@H](CO)O1 ; cells: PRK ; result: >200 µg/mL
OC[C@H]1O[C@@H](c2cc(C(O)C(I)I)c(F)cc2F)C[C@@H]1O ; cells: E6SM ; result: >80 µg/mL
CC=NC(=N)c1nc(-c2cccc(OC)c2)n(C/C=C/c2ccccc2)n1 ; cells: E6SM ; result: >10 µg/mL
CCc1cn([C@@H]2O[C@H](COP(=O)(O)O)[C@@H](O)[C@H]2O)c(=O)nc1N ; result: >400 µg/mL
O=c1[nH]c(=O)n([C@@H]2O[C@H](CO)[C@@H](O)[C@@H]2O)cc1-c1cccs1 ; cells: HEL ; result: >400 µg/mL
N=C(N)CCNC(=O)c1c[nH]c(NC(=O)c2c[nH]c(NC(=O)c3c[nH]c(NC(=O)CCC(=O)Nc4c[nH]c(C(=O)Nc5c[nH]c(C(=O)Nc6c[nH]c(C(=O)NCCC(=N)N)c6)c5)c4)c3)c2)c1 ; cells: PRK ; result: 4 µg/mL
Nc1ncnc2c1nnn2[C@H]1C[C@H](O)[C@@H](CO)O1 ; cells: VERO ; result: >396 µM
O=c1[nH]c(=O)n([C@H]2C[C@H](O)[C@@H](CO)O2)cc1-c1ccc(Br)s1 ; cells: HEL ; result: 70 µg/mL

A second listing of 6 rows from above:

smiles,strain or isolate,cells,result
CCCCCCCC#Cc1c[nH]c(=O)[nH]c1=O,-,HEL,>40 µM
O=c1[nH]c(=O)n([C@@H]2O[C@H](CO)[C@@H](O)[C@@H]2O)cc1-c1cccs1,-,HEL,>400 µg/mL
CC1(C)[C@@H](CCO)C[C@H]1n1cnc2c(=O)[nH]c(N)nc21,-,E6SM,>400 µg/mL
CCCCCC#Cc1c[nH]c(=O)[nH]c1=O,-,HEL,>200 µM
O=c1[nH]c(=O)n(C2CC(O[N+](=O)[O-])C(CO)O2)cc1F,-,E6SM,>400 µg/mL
O=c1[nH]c(=O)n([C@H]2C[C@H](O)[C@@H](CO)O2)cc1I,IHD,HeLa,3.39 µg/mL

An empty or dashed field is not shown. Conditions beyond the fields shown may differ between rows.